From publication PMC5702678

Biological target: BG505 SOSIP.664 trimer (HIV-1) (UniProt Q2N0S6)
Assay: negative-stain EM, single-particle 2D classification; in solution; 90 nM trimer incubated 1 h with 600 nM VRC01 Fab, then overnight with 600 nM sCD4; ambient conditions; particles counted in 2D class averages

“soluble CD4 (from UniProt P01730 26-396) (receptor)” showed a percent of particles in mixed sCD4-VRC01 classes of 16% and a percent of particles in the sCD4-bound open trimer class of 70%.
